# PSTVd loop 6 mutant pool in Nicotiana benthamiana

Values reported by Wu et al. 2024 (doi:10.1371/journal.ppat.1012142).

The pool varies loop 6 of the PSTVd intermediate strain in the pattern UNNNCGNNNG; wild type is UGACCGCGAG (upper and lower strand joined, each 5' to 3', the first 5 letters being the upper strand, closing pairs included).

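A pool of all variants was put on leaves of three Nicotiana benthamiana plants. Samples came from the inoculated region at 5 days, the leaf margin at 10 and upper systemic leaves at 12.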

Values are reads per thousand in the sample; higher means more abundant, 0 means not found.
Each value is the mean of three plants.
"Pool" is the share in the plasmid pool used as inoculum, on the same scale.
The inoculated region was read from the minus strand, the other sites from the plus strand.
For reference, wild type rose from 20.7 per thousand in the pool to 195, 198, 203 (inoculated region), 629, 591, 734 (leaf margin) and 942, 870, 868 (systemic leaves).
Samples held 36,220 to 57,551 reads, so the smallest values rest on one or two reads.
Sequences that differ at fixed positions probably stem from PCR or sequencing errors, and defective variants can be carried along by functional ones.

UUACCGCUGG (pool 0.118): inoculated region 0.0959; leaf margin 0.0353; systemic leaves 0.
UUGGCGAACG (pool 0.392): inoculated region 0.114; leaf margin 0; systemic leaves 0.00599.
UGGGCGGGAG (pool 0.157): inoculated region 0.542; leaf margin 0.0798; systemic leaves 0.0331.
UCAGCGAUUG (pool 0.340): inoculated region 0.0664; leaf margin 0; systemic leaves 0.
UCGACGACUG (pool 0.392): inoculated region 0.0783; leaf margin 0; systemic leaves 0.
UCGUCGCAUG (pool 0.144): inoculated region 0.0779; leaf margin 0.00920; systemic leaves 0.
UCUCCGAAGG (pool 0.170): inoculated region 0.124; leaf margin 0.00773; systemic leaves 0.
UUCCCGUGUG (pool 0.405): inoculated region 0.0952; leaf margin 0.0184; systemic leaves 0.
UGCUCGUUCG (pool 0.275): inoculated region 0.0653; leaf margin 0.0169; systemic leaves 0.
UCUGCGGACG (pool 0.275): inoculated region 0.0894; leaf margin 0; systemic leaves 0.
UCCUCGUGCG (pool 0.209): inoculated region 0.0658; leaf margin 0.00920; systemic leaves 0.
UGUCCGAGGG (pool 0.170): inoculated region 0.113; leaf margin 0; systemic leaves 0.00684.
UAGACUGUGG (pool 0.0131): inoculated region 0; leaf margin 0; systemic leaves 0.
UCCUCGGCGG (pool 0.131): inoculated region 0.125; leaf margin 0; systemic leaves 0.
UACGCGCUCG (pool 0.209): inoculated region 0.0650; leaf margin 0; systemic leaves 0.00684.
UAUGCGUAUG (pool 0.275): inoculated region 0.0712; leaf margin 0.0552; systemic leaves 0.
UUUACGAACG (pool 0.105): inoculated region 0.136; leaf margin 0; systemic leaves 0.
UAAUCGAAUG (pool 0.405): inoculated region 0.154; leaf margin 0; systemic leaves 0.
UCUUCGCAAG (pool 0.261): inoculated region 0.131; leaf margin 0.00773; systemic leaves 0.
GGACCGCCCG (pool 0.0131): inoculated region 0.0119; leaf margin 0; systemic leaves 0.00684.
UGAUCGACAG (pool 0.209): inoculated region 0.167; leaf margin 0.00773; systemic leaves 0.
UAGACGCUAG (pool 0.222): inoculated region 0.113; leaf margin 0.00920; systemic leaves 0.
UCCCCGUGCG (pool 0.261): inoculated region 0.0900; leaf margin 0.0168; systemic leaves 0.
UUUGCGGACG (pool 0.183): inoculated region 0.125; leaf margin 0; systemic leaves 0.
UUACCGCUAG (pool 0.144): inoculated region 0.813; leaf margin 0.150; systemic leaves 0.
UAUGCGAAAG (pool 0.170): inoculated region 0.0827; leaf margin 0.0169; systemic leaves 0.
UAUUCUGUGG (pool 0.0131): inoculated region 0; leaf margin 0; systemic leaves 0.
UGUCCGAAGG (pool 0.157): inoculated region 0.0779; leaf margin 0.00920; systemic leaves 0.
UCCUCGAACG (pool 0.209): inoculated region 0.0892; leaf margin 0; systemic leaves 0.
UUUCCGCUUG (pool 0.301): inoculated region 0.114; leaf margin 0.0309; systemic leaves 0.

Extract of 4 entries:

- UAGACGCUAG (pool 0.222): inoculated region 0.113; leaf margin 0.00920; systemic leaves 0
- UUACCGCUAG (pool 0.144): inoculated region 0.813; leaf margin 0.150; systemic leaves 0
- GGACCGCCCG (pool 0.0131): inoculated region 0.0119; leaf margin 0; systemic leaves 0.00684
- UAUGCGAAAG (pool 0.170): inoculated region 0.0827; leaf margin 0.0169; systemic leaves 0